Assay results published in article PMC9921063 (Molecules, 2023).

Key:
Details in all cases: CC50 (Vero) over IC50
L. major amastigotes = test: Antileishmanial assay, amastigotes; format: cell-based, Leishmania major
Experimental: (§1) This assay was carried out according to the methods mentioned in our previously published article. L. major promastigotes were isolated locally from an indoor patient in 2016, liquid nitrogen was used for the preservation of the parasites, and BALB/c mice were used for the maintenance of the parasites and production of L. major amastigotes. Phenol red-free RPMI 1640 medium (Invitrogen, USA) with 10% FBS was used for the culture and in vitro evaluation, while amphotericin B (AmB) was used as reference drug.

L. major promastigotes = test: Antileishmanial assay, promastigotes; format: cell-based, Leishmania major
Experimental: as §1

[1] = tested on: T. gondii tachyzoites RH strain; test: Antitoxoplasmal assay; format: cell-based, Toxoplasma gondii
Experimental: This assay was carried out according to the methods mentioned in our previously published article. Vero cells line (ATCC® CCL81™, USA) were used for the serial passage and cultivation of T. gondii tachyzoites RH strain, complete RPMI 1640 medium with heat-inactivated 10% FBS was used for the culture and in vitro evaluation, while atovaquone (ATO) was used as reference drug. The results were expressed in IC50 of three independent readings, followed by the selectivity index (SI) calculation by dividing CC50 over IC50 of the same compound [56].

Row | Compound | Amastigote SI (L. major amastigotes) | Promastigote SI (L. major promastigotes) | SI Toxoplasma [1]
1 | 5,6-dimethyl-1,3-bis(2,3,4,5,6-pentamethylbenzyl)-1H-benzo[d]imidazol-3-ium bromide [Compound 2a] | 1.1 | 0.4 | 0.14
2 | Cc1cc(C)c(Cn2c[n+](Cc3c(C)cc(C)cc3C)c3cc(C)c(C)cc32)c(C)c1.[Br-] [Compound 2b, 5,6-dimethyl-1,3-bis(2,4,6-trimethylbenzyl)-1H-benzo[d]imidazol-3-ium bromide] | 3.7 | 0.5 | 0.3
3 | Cc1ccc(C[n+]2cn(Cc3ccc(C(C)(C)C)cc3)c3cc(C)c(C)cc32)cc1 [Compound 2c, 5,6-dimethyl-1,3-((4-(tert-butyl)-4-methyl-benzyl)-1H-benzo[d]imidazol-3-ium bromide] | 1.7 | 0.5 | 1.4
